PubChem BioAssay AID1259414, Drosophila RNAi Screening Center | 2018

Assay: 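Fly genes that alter Wolbachia amount inside host cells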 (primary screen)
System: Drosophila JW18 cells infected with Wolbachia
Knock-down reagent: long dsRNA against Drosophila genes, 0.25 µg dsRNA per well of a 384-well plate
Duration: 5 days
Treatment: cells persistently infected with Wolbachia before knock-down; no added drug
Measurement: 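Automated imaging of bacterial rRNA staining divided by host cell count, reported as plate-normalised robust z-score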
Direction: Wolbachia per cell robust z: higher = more Wolbachia per host cell than the plate typical
Active means: 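Active if absolute robust z reaches 1.5 in two or more of three replicates, leaving out multi- or no-target dsRNAs, genes unexpressed in JW18 and A1 wells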
The deposit covers about 24,000 reagents; this is an unselected part of those with a known target gene and a result. In the full data, about 1,210 (5%) were called active. 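Inactive calls also include excluded dsRNAs with several or no targets, genes unexpressed in JW18, and well A1, regardless of score.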 Entries without a mark were called inactive. A plus sign joins genes that one reagent is predicted to hit.

gene knocked down,DRSC id,"Wolbachia per cell robust z, rep 1","Wolbachia per cell robust z, rep 2","Wolbachia per cell robust z, rep 3"
by,DRSC16482,-1.52,0.0563,-0.877
by,DRSC28644,0.932,-0.171,1.24
CG32815,DRSC18177,-0.768,-0.209,0.667
CG32815,DRSC18179,-1.63 (active),-0.79,-2.98
CG11241,DRSC11641,0.849,-0.875,0.821
CG11241,DRSC22165,-1.19,-0.85,0.346
CCHa1-R,DRSC06456,-1.15,0.566,0.444
CCHa1-R,DRSC06715,-0.288,-0.656,-1.41
CG15498,DRSC15040,-0.873,-0.678,-0.864
CG30503 + kappaB-Ras,DRSC25537,-0.745,0.18,-1.05
CG4970,DRSC02796,0.561,-6.21,-7.41
betaTry,DRSC07582,-4.1,0.254,-0.86
betaTry,DRSC22377,-0.234,0.543,-0.105
betaTry,DRSC29939,0.396,-1.17,0.846
Pp2C1,DRSC23287,-0.17,0.412,-0.168
Pp2C1,DRSC28091,1.14,-0.0659,0.345
Fas2,DRSC17308,-0.275,0.91,-0.14
Fas2,DRSC17309,0.0994,0.429,0.179
Fas2,DRSC18664,-1.31,0.427,0.377
LRP1,DRSC07238,1.29,0.579,0.277
Actn3,DRSC14106,0.505,-1.03,-0.137
dila,DRSC06607,0.546,-1.98,0.253
dila,DRSC26509,-1.88,-1.6,-3.16
Mst77F,DRSC11871,-0.892,-0.162,-0.709
D12,DRSC03311,-0.297,-0.138,-1.39
Lcp65Af,DRSC11213,0.0215,0.0173,-0.0794
Lcp65Af,DRSC25142,1.31,-0.0324,0.917
gammaCOP,DRSC16955,1.45 (active),2.48,2.84
gammaCOP,DRSC39106,1.45 (active),3.32,2.2
CG32713,DRSC22766,1.64,1.16,1.05
CG6724,DRSC02983,-1.67,-0.899,0.161
etaTry,DRSC07613,-5.77,1.23,0.698
etaTry,DRSC28998,-7.26,-1.12,0.292
CG4882,DRSC04495,-2,-0.00923,0.543
CG4882,DRSC29963,0.329,-0.505,-8.22
CG42811,DRSC15367,0.799,-0.531,-1.26
CR31700,DRSC03682,-3.76,-0.607,-1.16
PIG-U,DRSC02193,-0.969,-0.907,-0.615
PIG-U,DRSC28900,-1.38,0.583,-1.19
Mco4,DRSC20061,0.327,-2.38,0.772
Mco4,DRSC27932,0.366,-1.07,-0.524
Alms1a,DRSC18558,1.16,-0.936,0.924
pr,DRSC03596,1.29,0.623,0.424
sens,DRSC09263,1.82,1.43,1.04
sens,DRSC23086,-1.57,-0.476,0.751
Apoltp,DRSC02508,0.701,0.247,-0.206
CG30043,DRSC06285,-0.942,0.0639,-2.38
fz4,DRSC18780,-5.49 (active),-0.0687,-2.28
CG5326,DRSC13568,0.914,1.21,0.901
CG5326,DRSC15770,0.747,-2.36,0.537
CG5326,DRSC23719,-0.279,0.952,0.276
wg,DRSC03636,-1.04,-0.142,0.172
wg,DRSC29776,0.00947,0.349,-7.72
CG11370,DRSC11653,-0.00289,0.548,-0.702
CG11370,DRSC28361,-1.8,-1.76,-4.44
nAChRbeta2,DRSC17010,1.15,1.2,-0.0912
Dcp-1,DRSC04609,0.259,-0.73,-0.0739
Sdr,DRSC15517,0.12,0.35,0.247
DIP-eta,DRSC02342,0.443,0.742,-2.24
CG13954,DRSC06442,0.596,-1.45,-0.0796
CG13954,DRSC27499,-0.868,-0.893,-1.15
Tsp42Eg,DRSC06112,-0.576,0.558,-0.262
vig,DRSC03630,-2.98 (active),-0.48,-3.63
vig,DRSC21672,-0.133,-1.6,-1.24
CG46491,DRSC06565,0.212,0.33,0.91
CG46491,DRSC06566,0.12,0.254,-0.454
ida,DRSC08163,0.173,0.053,1.7
Vps37B,DRSC12165,0.542,0.488,0.0761

Reformatted: entries from further up.
gene knocked down | DRSC id | Wolbachia per cell robust z, rep 1 | Wolbachia per cell robust z, rep 2 | Wolbachia per cell robust z, rep 3
pr | DRSC03596 | 1.29 | 0.623 | 0.424
sens | DRSC09263 | 1.82 | 1.43 | 1.04
sens | DRSC23086 | -1.57 | -0.476 | 0.751
Apoltp | DRSC02508 | 0.701 | 0.247 | -0.206
CG30043 | DRSC06285 | -0.942 | 0.0639 | -2.38
